Data as given in article doi:10.1101/777375.

These sequences were tested against T1, VxrB (Vibrio cholerae) (UniProt Q9KM23) (assay: EMSA). Conditions: residues 1-245.
T1 sequence (looked up): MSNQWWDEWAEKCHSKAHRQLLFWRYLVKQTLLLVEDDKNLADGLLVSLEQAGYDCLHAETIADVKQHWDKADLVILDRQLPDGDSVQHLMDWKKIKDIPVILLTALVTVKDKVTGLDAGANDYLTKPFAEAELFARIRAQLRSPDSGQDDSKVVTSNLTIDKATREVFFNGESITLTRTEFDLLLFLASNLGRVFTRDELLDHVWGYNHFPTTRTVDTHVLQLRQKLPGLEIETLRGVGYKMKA
“AGAGCCTTTCGGTTATTATTTTGTCACGTCTTTGCTAAAAATGAGAAAAG (double strand) [VC2213 M50]”: binds.
“ACTGAGTTTGGGTCAACCCTAGGTCAATTCTGGTTAGGCGGCGCACAAAC (double strand) [VC0370 M50]”: binds.
“TTAACCAAGTTAGAGTATTGACGTCAGATTTTTACCAAAAAACTTATTTC (double strand) [VC2037 M50]”: binds.
“TAAAACCGCCCTATTACTCACTGTTGTTGGTGCCGTTCTGCTCACTGGCT (double strand) [VCA0594 FP1P50]”: binds.
“CAATATCATGCAAATGCATGGTTCTGACCAAAACTTTACGTAACTATTAC (double strand) [VC1655 (mgtE) M50]”: binds.
“AAAGATCATTTGTCGCTGAGAACTTGACCTCATCCCTACAAACGTCGAAC (double strand) [VC1272 FP1P50]”: binds.
“AACGCGTCATCTTTTCAACTTCTCACATTAAGTTGTTCTAAATTCAACGA (double strand) [VC0969 M50]”: binds.
“GCTATTCGGTTAAAAAAACCGCGCAATTTGACCCAAGCTTAACTTAACGA (double strand) [VC2686 (zapB) FP1P50]”: binds.
“AAACCCTTTTTTAGTTCTTTTAGTTTCTTTACAATTTTCTGATAATCGAG (double strand) [VC2635 (pbp1a) FP1P50]”: binds.
“ATTCTATCAGCATTTTTTTACCAATGCTAATACTTATCTGATCTCACTAT (double strand) [VC0680 (murJ) MP50]”: binds.

Tags and fusion partners may be left off the protein sequences shown.
